Results of unrelated studies side by side (data: NIAID ChemDB).

Common to all: growth or infection tests; species: Mycobacterium tuberculosis

Inhibition is in % at the dose shown (toxicity tests: loss of growth or viability).

compound	strain or isolate	mutations	method	setting	read-out	dose	value
CC(NNC(=O)c1ccncc1)c1ccc(Cl)c(Cl)c1	Erdman				MIC		3.13 µg/mL
CC1COc2c(N3CCN(C)CC3)c(F)cc3c(=O)c(C(=O)O)cn1c23	08-211		BACTEC		MIC		0.125 µg/mL
CO[C@H]1/C=C/O[C@@]2(C)Oc3c(C)c(O)c4c(=O)c(c5oc6cc(N7CCN(CC(C)C)CC7)cc(=O)c6nc5c4c3=C2O)NC(=O)/C(C)=C\C=C\[C@H](C)[C@H](O)[C@@H](C)[C@@H](O)[C@@H](C)[C@H](OC(C)=O)[C@@H]1C	2227 (rifampicin-resistant)				MIC		0.062 µg/mL
CCn1cc(C(=O)O)c(=O)c2cc(F)c(N3CCNCC3)cc21	100 isolates				MIC90		>16 µg/mL
CC(=O)NC[C@H]1CN(c2ccc(N3CCN(c4ccc([N+](=O)[O-])s4)CC3)c(F)c2)C(=O)O1	35801				MIC		≤0.125 µg/mL
Cc1c(C(=O)NN)sc(C(=O)NN)c1C	H37Rv		BACTEC		inhibition	12.5 µg/mL	17%
C/C=C1/C(=O)O[C@]23C=C[C@@H]4C(C(=O)OC)=CO[C@H](O[C@@H]12)[C@@H]43	H37Rv		MTT		MIC		2.1 µg/mL
CC(=O)NN					MIC		>200 µg/mL
O=C(NNCc1cccc(C(F)(F)F)c1)c1ccncc1	H37Rv (ethionamide-resistant)				MIC		>31.25 µg/mL
COc1ccc(N=Nc2c(O)c3cccc([N+](=O)[O-])c3n(C)c2=O)c(C)c1	H37Rv		resazurin		inhibition	6.25 µg/mL	40%
Cc1nn(C(=O)Cc2ccccc2)c2c1C(c1ccccc1)SC(N)=N2	H37Rv		BACTEC		inhibition	12.5 µg/mL	7%
CN[C@@H]1[C@H](O[C@H]2[C@H](O[C@H]3[C@H](O)[C@@H](O)[C@H](N=C(N)N)[C@@H](O)[C@@H]3N=C(N)N)O[C@@H](C)[C@]2(O)C=O)O[C@@H](CO)[C@H](O)[C@H]1O	TB377	Spiroindene-resistant	turbidity		MIC		1 µM
CCN(CC)C(=S)[S][Sn]([S]C(=S)N(CC)CC)([c]1ccccc1)[c]1ccccc1	TAC-R				MIC		0.8 µg/mL
CO[C@H]1/C=C/O[C@@]2(C)Oc3c(C)c(O)c4c(O)c(c(/C=N/N5CCN(C6CCCC6)CC5)c(O)c4c3C2=O)NC(=O)/C(C)=C\C=C\[C@H](C)[C@H](O)[C@@H](C)[C@@H](O)[C@@H](C)[C@H](O)[C@@H]1C	Atencio				MBC		0.25 µg/mL
CO[C@H]1[C@@H](O)[C@@H](C)O[C@@H](OC2CCC3(C)C(CCC4C3C(O)CC3(C)C(C5=CC(=O)OC5)CCC43O)C2)[C@@H]1O	H37Rv		BACTEC		MIC bound		>12.5 µg/mL
O=c1[nH]c2cc(Cl)ccc2c(O)c1N=Nc1ccccc1	H37Rv		resazurin		inhibition	6.25 µg/mL	76%
CC(=O)O[C@]1(C)[C@@H](C)C(=O)O[C@@H]2CCN3CC=C(COC(=O)[C@]1(C)O)[C@H]23	H37Rv		BACTEC		MIC		≥12.8 µg/mL
C[C@@H]1CN(c2c(F)c(N)c3c(=O)c(C(=O)O)cn(C4CC4)c3c2F)C[C@H](C)N1	100 isolates				MIC90		1 µg/mL
Cn1c2ccccc2c2nnc(SCCN3CCOCC3)nc21	H37Rv		resazurin		MIC bound		>6.25 µg/mL
COc1ccc(-c2noc(C3=CC4(CCN(CC5CCCO5)CC4)c4ccccc43)n2)cc1	TB365	Spiroindene-resistant	turbidity		MIC		3 µM
COc1cc2c(cc1OC)[n+](=O)c1c(n2[O-])-c2cccc3cccc-1c23	H37Rv		resazurin		MIC bound		>6.25 µg/mL
CO[C@H]1/C=C/O[C@@]2(C)Oc3c(C)c(O)c4c(O)c(c5c(c4c3C2=O)NC2(CCN(CC(C)C)CC2)N=5)=NC(=O)/C(C)=C\C=C\[C@H](C)[C@H](O)[C@@H](C)[C@@H](O)[C@@H](C)[C@H](OC(C)=O)[C@@H]1C	32 (rifampicin-susceptible)				MIC		≤0.062 µg/mL
O=C(Oc1cc(Cl)ccc1C(=O)Nc1ccc(C(F)(F)F)cc1)c1cnccn1	multidrug resistant 234/2005			21 d	MIC		0.5 µM
CO[C@H]1/C=C/O[C@@]2(C)Oc3c(C)c(O)c4c(O)c(c5c(c4c3C2=O)NC2(CCN(CC(C)C)CC2)N=5)=NC(=O)/C(C)=C\C=C\[C@H](C)[C@H](O)[C@@H](C)[C@@H](O)[C@@H](C)[C@H](OC(C)=O)[C@@H]1C	Strain 62 (M515V)				MIC		0.015 µg/mL
CC(C)(C)C(=O)ON1N=NC2C3CC(OCc4ccccc4)(OCc4ccccc4)C(O3)C21	H37Rv		BACTEC		inhibition	12.5 µg/mL	0%
NC(=O)c1cnccn1	Isolate 9811 monodrug-resistant				MIC		>300 µg/mL
O=C1CCC(c2ccccc2)=NN1					MIC		>200 µg/mL
CCC1Cn2cc([N+](=O)[O-])nc2O1	H37Rv				MIC		0.4 µM
[Na+].[Na+].[O-]/C(=N\N=C(\[O-])c1ccccc1)c1ccccc1					MIC		>200 µg/mL
COc1cc(C(=O)NC(N)=O)cc(OC)c1OC	H37Rv		BACTEC		inhibition	12.5 µg/mL	0%
CC(=O)NC[C@H]1CN(c2ccc(N3CCOCC3)c(F)c2)C(=O)O1	7S				MIC		0.5 µg/mL
C/C(=N\NC(=O)c1ccncc1)c1ccccc1	Isoniazid-resistant				MIC		>3.2 µg/mL
O=C1c2ccccc2C(=O)N1Nc1ccccc1					MIC		>200 µg/mL
O=C(CC1Sc2ccccc2NC1=O)NNc1cccc(Cl)c1Cl	H37Rv		BACTEC		inhibition	12.5 µg/mL	16%
O=C(Oc1ccc(Cl)cc1C(=O)Nc1ccc(C(F)(F)F)cc1)c1cnccn1	multidrug resistant 9449/2006			14 d	MIC		0.125 µM
CC(=O)c1ccc(N2CCN(C(=O)c3cccc(Cl)c3)CC2)cc1	BioA overexpression strain		turbidity		MIC90		>50 µM
O=C(N/N=C/c1cccc(F)c1)c1ccncc1	H37Rv (rifampin-resistant)				MIC		≤2 µg/mL
O=[N+]([O-])c1cn2c(n1)OC[C@@H](OCc1ccc(OC(F)(F)F)cc1)C2	H37Rv-T3-Fgd1 (PA-824-resistant)				MIC		0.8 µM
CCOC(=O)c1cn(CC)c2c(cc([N+](=O)[O-])c3cccnc32)c1=O	H37Rv	gyrA mutation D94G gyrB mutation D500N			MIC90		>50 µM
O=C(c1cccc(Cl)c1)N1CCN(c2ccc(-c3ccccn3)cc2)CC1	BioA underexpression strain		turbidity		MIC50		>50 µM
NS(=O)(=O)c1ccc(N2C(=S)N(c3ccccc3)C(=Nc3ccccc3)C2=Nc2ccccc2)cc1	H37Rv		BACTEC		inhibition	12.5 µg/mL	91%
C/C(=N\NC(=O)c1ccncc1)c1ccccc1F	Isoniazid-resistant				MBC		>6.25 µg/mL
CC(CN(C)C)CN1c2ccccc2Sc2ccccc21	H37Rv		BACTEC		inhibition	12.5 µg/mL	32%
Clc1ccc(-n2cc(CNC3c4ccccc4-c4ccccc43)nn2)cc1	H37Rv		broth dilution		MIC99		268 µM
CC[C@@H](CO)NCCN[C@@H](CC)CO	18b+	Drug-resistant	resazurin		MIC		1.2 µM
CN1c2ccccc2CCC1CCc1ccc2c(c1)OCO2	MT1				MIC		>339 µg/mL
CC(NNC(=O)c1ccncc1)c1cccc(C(F)(F)F)c1	H37Rv				MBC		25 µg/mL
CCC1CCC2CN(/N=C/c3c4c(O)c5c(O)c(C)c6c(c5c3O)C(=O)[C@@](C)(O/C=C/[C@H](OC)[C@@H](C)[C@@H](OC(C)=O)[C@H](C)[C@H](O)[C@H](C)[C@@H](O)[C@@H](C)/C=C/C=C(/C)C(=O)N4)O6)CCN2C1	H37Rv				MIC		0.03 µg/mL
COc1ccc(-n2cc(CS(=O)(=O)C3c4ccccc4-c4ccccc43)nn2)cc1	Specimen 192		broth dilution		MIC99		120 µM
NC(=O)c1cnccn1	H37Rv			7 d	EC50		<800 µg/mL
Cc1ccc(S(=O)(=O)OCC2OC(C)(C)OC3C(COS(=O)(=O)c4ccc(C)cc4)OC(C)(C)OC23)cc1	H37Rv		BACTEC		MIC bound		>12.5 µg/mL
C/C(CCC(=O)O)=N/NC(=O)c1ccccc1					MIC		1 µg/mL
C1=C(c2nc(-c3ccccc3)no2)c2ccccc2OC12CCN(CC1CCCO1)CC2	H37Rv		colony count / visual reading		MBC		1.3 µM
O=C(Oc1ccc(Br)cc1C(=O)Nc1ccc(C(F)(F)F)cc1)c1cnccn1	H37Rv 331/88			21 d	MIC		1 µM
CO[C@H]1/C=C/O[C@@]2(C)Oc3c(C)c(O)c4c(O)c(c(/C=N/N5CCN(C6CCCC6)CC5)c(O)c4c3C2=O)NC(=O)/C(C)=C\C=C\[C@H](C)[C@H](O)[C@@H](C)[C@@H](O)[C@@H](C)[C@H](OC(C)=O)[C@@H]1C	1034				MIC		0.16 µg/mL
O=C(Oc1cc(Cl)ccc1C(=O)Nc1cccc(F)c1)c1cnccn1	H37Rv 331/88			14 d	MIC		2 µM
O[C@H](c1cc(C(F)(F)F)nc2c(C(F)(F)F)cccc12)[C@H]1CCCCN1	FQR-M14				MIC		10 µg/mL
O=C(Oc1ccc(Cl)cc1C(=O)Nc1cccc(F)c1)c1cnccn1	H37Rv 331/88			21 d	MIC		4 µM
CC(=O)c1ccc(N2CCN(C(=O)CC(C)C)CC2)cc1	BioA overexpression strain		turbidity		MIC50		>50 µM
O=C(Oc1ccc(Cl)cc1C(=O)Nc1cccc(C(F)(F)F)c1)c1cnccn1	multidrug resistant 7357/1998			21 d	MIC		1 µM
C[C@H]1COc2c(N3CCN(C)CC3)c(F)cc3c(=O)c(C(=O)O)cn1c23	1S				MIC		0.5 µg/mL
O=c1[nH]c2c([N+](=O)[O-])cccc2c(O)c1N=Nc1ccccc1	H37Rv		resazurin		inhibition	6.25 µg/mL	99%
O=C(c1cccc(Cl)c1)N1CCN(c2ccc(-c3ccno3)cc2)CC1	BioA underexpression strain		turbidity		MIC90		1.3 µM
C[C@@H]1CN(c2c(F)c(N)c3c(=O)c(C(=O)O)cn(C4CC4)c3c2F)C[C@H](C)N1	900240				MIC		0.2 µg/mL
CC(=O)c1ccc(N2CCN(C(=O)c3cccc(Cl)c3)CC2)s1	BioA overexpression strain		turbidity		MIC90		>50 µM
CC(C)(C)c1ccc(CN2CCC3(CC2)C(=O)Nc2ccccc23)cc1	H37Rv		resazurin		MIC		3 µM
Cc1c(C(=O)CC2OC(=O)C(Cl)=C2Cl)c2ccccc2n1C(=O)Nc1ccc(Cl)cc1	H37Rv		BACTEC		MIC bound		>12.5 µg/mL
C1=C(c2nc(-c3cccnc3)no2)c2ccccc2C12CCN(CC1CCCO1)CC2	TB365	Spiroindene-resistant	turbidity		MIC		>31 µM
C[n+]1cccc(C(=O)NO)c1.[I-]	H37Rv		BACTEC		MIC bound		>12.5 µg/mL
O=c1[nH]c2ccc(Cl)cc2c(O)c1N=Nc1ccc(Cl)c(Cl)c1	H37Rv		resazurin		MIC		<6.25 µg/mL
Fc1ccc(-n2cc(CSC3c4ccccc4-c4ccccc43)nn2)cc1	H37Rv		broth dilution		MIC99		66.94 µM
CN(C)c1ccc2[nH+]c3c(C(=O)O)cc(=O)c(O)c-3oc2c1	H37Rv		BACTEC		inhibition	12.5 µg/mL	-6%
O=S(=O)(Cc1cn(-c2ccc(F)cc2)nn1)C1c2ccccc2-c2ccccc21	Specimen 192		broth dilution		MIC99		123 µM
Cn1cc(C(=O)O)c(=O)c2cc([N+](=O)[O-])c3cccnc3c21	BCG	gyrA mutation D94G			MIC90		1.4 µM
CCOC(=O)Cc1csc(=NC(=O)c2ccccc2)n1N	H37Rv		resazurin		inhibition	6.25 µg/mL	54%
Cc1ccc(N=Nc2c(O)c3c(Cl)ccc(Cl)c3[nH]c2=O)cc1	H37Rv		resazurin		MIC		>6.25 µg/mL
CC(=O)OCc1cc(=O)n(C)c2c3c4c(cc12)c(C)cc(=O)n4CO3	EMB-R				MIC		1.6 µg/mL
Cc1ccc(-n2cc(CNC3c4ccccc4-c4ccccc43)nn2)cc1	H37Rv		broth dilution		MIC99		142 µM
CN(C)CCN1C(=O)c2cccc3cc(N)cc(c23)C1=O	H37Rv		resazurin		MIC bound		>6.25 µg/mL
COc1ccc(N=Nc2c(O)c3ccc(Cl)c(Cl)c3[nH]c2=O)cc1	H37Rv		resazurin		inhibition	6.25 µg/mL	14%

12 of the rows above, restated:

compound | strain or isolate | mutations | method | setting | read-out | dose | value
O=C1c2ccccc2C(=O)N1Nc1ccccc1 |  |  |  |  | MIC |  | >200 µg/mL
C/C=C1/C(=O)O[C@]23C=C[C@@H]4C(C(=O)OC)=CO[C@H](O[C@@H]12)[C@@H]43 | H37Rv |  | MTT |  | MIC |  | 2.1 µg/mL
Cc1c(C(=O)CC2OC(=O)C(Cl)=C2Cl)c2ccccc2n1C(=O)Nc1ccc(Cl)cc1 | H37Rv |  | BACTEC |  | MIC bound |  | >12.5 µg/mL
COc1ccc(-n2cc(CS(=O)(=O)C3c4ccccc4-c4ccccc43)nn2)cc1 | Specimen 192 |  | broth dilution |  | MIC99 |  | 120 µM
O=C(Oc1ccc(Cl)cc1C(=O)Nc1ccc(C(F)(F)F)cc1)c1cnccn1 | multidrug resistant 9449/2006 |  |  | 14 d | MIC |  | 0.125 µM
C[C@@H]1CN(c2c(F)c(N)c3c(=O)c(C(=O)O)cn(C4CC4)c3c2F)C[C@H](C)N1 | 900240 |  |  |  | MIC |  | 0.2 µg/mL
O=S(=O)(Cc1cn(-c2ccc(F)cc2)nn1)C1c2ccccc2-c2ccccc21 | Specimen 192 |  | broth dilution |  | MIC99 |  | 123 µM
NC(=O)c1cnccn1 | Isolate 9811 monodrug-resistant |  |  |  | MIC |  | >300 µg/mL
CO[C@H]1/C=C/O[C@@]2(C)Oc3c(C)c(O)c4c(O)c(c(/C=N/N5CCN(C6CCCC6)CC5)c(O)c4c3C2=O)NC(=O)/C(C)=C\C=C\[C@H](C)[C@H](O)[C@@H](C)[C@@H](O)[C@@H](C)[C@H](O)[C@@H]1C | Atencio |  |  |  | MBC |  | 0.25 µg/mL
O=c1[nH]c2ccc(Cl)cc2c(O)c1N=Nc1ccc(Cl)c(Cl)c1 | H37Rv |  | resazurin |  | MIC |  | <6.25 µg/mL
CC(C)(C)C(=O)ON1N=NC2C3CC(OCc4ccccc4)(OCc4ccccc4)C(O3)C21 | H37Rv |  | BACTEC |  | inhibition | 12.5 µg/mL | 0%
Cc1nn(C(=O)Cc2ccccc2)c2c1C(c1ccccc1)SC(N)=N2 | H37Rv |  | BACTEC |  | inhibition | 12.5 µg/mL | 7%

ECn is the concentration giving n% inhibition of infection, replication or growth. MIC bound: limit read from a one-dose screen. MIC50, MIC90 and the like: level of inhibition, or share of isolates inhibited. Blank or dashed fields: not listed here. Conditions beyond the fields shown may differ between rows.